Record: PubChem BioAssay AID1259414 (Drosophila RNAi Screening Center, 2018)
Assay: 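Host factors increasing or decreasing Wolbachia levels in cultured fly cells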 (primary screen). Cells: Drosophila JW18 cells infected with Wolbachia. Reagent: long dsRNA against Drosophila genes, 0.25 µg dsRNA per well of a 384-well plate. Timing: 5 days. Challenge: cells persistently infected with Wolbachia before knock-down; no added drug. Measurement: 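Automated imaging of bacterial rRNA staining divided by host cell count, reported as plate-normalised robust z-score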. Scale: Wolbachia per cell robust z: higher = more Wolbachia per host cell than the plate typical. Call rule: 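Active if absolute robust z reaches 1.5 in two or more of three replicates, leaving out multi- or no-target dsRNAs, genes unexpressed in JW18 and A1 wells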.
The deposit covers about 24,000 reagents; shown is an unselected part of those that have a named target and a result. Over the whole deposit, about 1,210 (5%) were called active. 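Inactive calls also include excluded dsRNAs with several or no targets, genes unexpressed in JW18, and well A1, regardless of score.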 Entries without a mark were called inactive. The numbers tell different reagents against one gene apart. Reagent sequences are not shown.

{"gene": "gus", "reagent no.": 1, "Wolbachia per cell robust z, rep 1": -0.919, "Wolbachia per cell robust z, rep 2": -1.64, "Wolbachia per cell robust z, rep 3": -0.163}
{"gene": "gus", "reagent no.": 2, "Wolbachia per cell robust z, rep 1": -0.637, "Wolbachia per cell robust z, rep 2": -0.872, "Wolbachia per cell robust z, rep 3": -1.11}
{"gene": "gus", "reagent no.": 3, "Wolbachia per cell robust z, rep 1": -0.743, "Wolbachia per cell robust z, rep 2": -0.318, "Wolbachia per cell robust z, rep 3": -1}
{"gene": "lncRNA:CR32658", "reagent no.": 1, "Wolbachia per cell robust z, rep 1": 0.222, "Wolbachia per cell robust z, rep 2": -2.94, "Wolbachia per cell robust z, rep 3": -5.31}
{"gene": "lncRNA:CR32658", "reagent no.": 2, "Wolbachia per cell robust z, rep 1": -0.197, "Wolbachia per cell robust z, rep 2": -0.906, "Wolbachia per cell robust z, rep 3": -0.465}
{"gene": "CG13689", "reagent no.": 1, "Wolbachia per cell robust z, rep 1": -0.207, "Wolbachia per cell robust z, rep 2": -6.84, "Wolbachia per cell robust z, rep 3": 0.0361}
{"gene": "Rap1", "reagent no.": 1, "Wolbachia per cell robust z, rep 1": "0.367 (active)", "Wolbachia per cell robust z, rep 2": 1.8, "Wolbachia per cell robust z, rep 3": 1.55}
{"gene": "Rap1", "reagent no.": 2, "Wolbachia per cell robust z, rep 1": -1.24, "Wolbachia per cell robust z, rep 2": 0.894, "Wolbachia per cell robust z, rep 3": 0.449}
{"gene": "CG11655", "reagent no.": 1, "Wolbachia per cell robust z, rep 1": 0.411, "Wolbachia per cell robust z, rep 2": 0.523, "Wolbachia per cell robust z, rep 3": -0.812}
{"gene": "TotB", "reagent no.": 1, "Wolbachia per cell robust z, rep 1": 0.47, "Wolbachia per cell robust z, rep 2": 0.426, "Wolbachia per cell robust z, rep 3": 0.949}
{"gene": "Wdr33", "reagent no.": 1, "Wolbachia per cell robust z, rep 1": -2.45, "Wolbachia per cell robust z, rep 2": 1.27, "Wolbachia per cell robust z, rep 3": 0.828}
{"gene": "Wdr33", "reagent no.": 2, "Wolbachia per cell robust z, rep 1": 0.776, "Wolbachia per cell robust z, rep 2": 0.782, "Wolbachia per cell robust z, rep 3": 2.29}
{"gene": "CG4461", "reagent no.": 1, "Wolbachia per cell robust z, rep 1": -0.635, "Wolbachia per cell robust z, rep 2": 1.32, "Wolbachia per cell robust z, rep 3": 0.632}
{"gene": "CG4461", "reagent no.": 2, "Wolbachia per cell robust z, rep 1": 0.869, "Wolbachia per cell robust z, rep 2": 0.00896, "Wolbachia per cell robust z, rep 3": 0.305}
{"gene": "CG4461", "reagent no.": 3, "Wolbachia per cell robust z, rep 1": -5.5, "Wolbachia per cell robust z, rep 2": -0.424, "Wolbachia per cell robust z, rep 3": -0.5}
{"gene": "Ddr", "reagent no.": 1, "Wolbachia per cell robust z, rep 1": -0.644, "Wolbachia per cell robust z, rep 2": 0.81, "Wolbachia per cell robust z, rep 3": 0.0862}
{"gene": "Ddr", "reagent no.": 2, "Wolbachia per cell robust z, rep 1": -0.1, "Wolbachia per cell robust z, rep 2": -1.41, "Wolbachia per cell robust z, rep 3": -1.09}
{"gene": "Ddr", "reagent no.": 3, "Wolbachia per cell robust z, rep 1": 0.685, "Wolbachia per cell robust z, rep 2": 0.46, "Wolbachia per cell robust z, rep 3": -2.79}
{"gene": "Ddr", "reagent no.": 4, "Wolbachia per cell robust z, rep 1": 0.765, "Wolbachia per cell robust z, rep 2": 0.327, "Wolbachia per cell robust z, rep 3": -0.177}
{"gene": "Obp19d", "reagent no.": 1, "Wolbachia per cell robust z, rep 1": -0.889, "Wolbachia per cell robust z, rep 2": 0.549, "Wolbachia per cell robust z, rep 3": 0.0709}

Limited to “Wolbachia per cell robust z, rep 2” (4 entries from above):
Ddr #2	-1.41
Ddr #3	0.46
Ddr #4	0.327
Obp19d	0.549

The list goes on:
{"gene": "CG5050", "reagent no.": 1, "Wolbachia per cell robust z, rep 1": -0.193, "Wolbachia per cell robust z, rep 2": 0.995, "Wolbachia per cell robust z, rep 3": 0.931}
{"gene": "CG6290", "reagent no.": 1, "Wolbachia per cell robust z, rep 1": -2.91, "Wolbachia per cell robust z, rep 2": -3.45, "Wolbachia per cell robust z, rep 3": -4.76}
{"gene": "CG6290", "reagent no.": 2, "Wolbachia per cell robust z, rep 1": 0.885, "Wolbachia per cell robust z, rep 2": -1.4, "Wolbachia per cell robust z, rep 3": 0.432}
{"gene": "CG14507", "reagent no.": 1, "Wolbachia per cell robust z, rep 1": -1.14, "Wolbachia per cell robust z, rep 2": -0.415, "Wolbachia per cell robust z, rep 3": 0.503}
{"gene": "CG14507", "reagent no.": 2, "Wolbachia per cell robust z, rep 1": -0.769, "Wolbachia per cell robust z, rep 2": -0.165, "Wolbachia per cell robust z, rep 3": 0.238}
{"gene": "CG2127", "reagent no.": 1, "Wolbachia per cell robust z, rep 1": -4.93, "Wolbachia per cell robust z, rep 2": -1.07, "Wolbachia per cell robust z, rep 3": -0.0739}
{"gene": "en", "reagent no.": 1, "Wolbachia per cell robust z, rep 1": 0.27, "Wolbachia per cell robust z, rep 2": -2.83, "Wolbachia per cell robust z, rep 3": 0.486}
{"gene": "en", "reagent no.": 2, "Wolbachia per cell robust z, rep 1": 0.326, "Wolbachia per cell robust z, rep 2": -3.16, "Wolbachia per cell robust z, rep 3": -1.68}
{"gene": "Nepl16", "reagent no.": 1, "Wolbachia per cell robust z, rep 1": 0.481, "Wolbachia per cell robust z, rep 2": -1.3, "Wolbachia per cell robust z, rep 3": 0.137}
{"gene": "Dfd", "reagent no.": 1, "Wolbachia per cell robust z, rep 1": -0.00261, "Wolbachia per cell robust z, rep 2": -0.562, "Wolbachia per cell robust z, rep 3": -0.767}
{"gene": "Dfd", "reagent no.": 2, "Wolbachia per cell robust z, rep 1": 0.35, "Wolbachia per cell robust z, rep 2": -0.659, "Wolbachia per cell robust z, rep 3": -0.616}
